Test results from ChEMBL document CHEMBL4184330 (J Med Chem, 2018).

Tested on: Ebolavirus
Assay: Antiviral activity against Ebolavirus like particle harboring full length EBOV Zaire wt/GIN/2014/ Kissidougou-C15 envelope glycoprotein and Influenzae virus envelope assessed as inhibition of viral infection in MDCK-SIAT1 cells after 48 hrs by e-GFP-based fluorescence assay

`CN(C)CCOc1ccc(/C(=C(/CCCl)c2ccccc2)c2ccccc2)cc1` was tested. Which IC50 did it give?
Its IC50 is 0.15 µM.
